Values of other authors in PMC9922164.

Molecular target: TLR4 (Homo sapiens) (UniProt O00206)

In the case of “Spike protein trimer trimer (from UniProt P0DTC2)”, the Kd is given as 300 nM.
